Source: the supplement of paper PMC9931576
Human monoclonal antibodies against the spike receptor-binding domain (heavy:light variable regions). IC50 against pseudoviruses bearing the spike of naturally observed variants; lower = stronger; >10 µg/ml means not reached at the top dose. No active / inactive call. The stated detection limit is 0.0005 µg/ml; values near or below 0.001 µg/ml lie at the floor of the assay.

Legend:
Assay in all cases: pseudovirus neutralization IC50; higher = weaker neutralization
[1] = target: SARS-CoV-2 Omicron BA.1 spike pseudovirus
Description: (§1)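 Single-round VSV luciferase pseudovirus mixed with antibody dilutions for 1 h and put on Huh-7 cells for about a day; IC50 from the dose curve.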

[2] = target: SARS-CoV-2 Omicron BA.2 spike pseudovirus
Description: as §1

[3] = target: SARS-CoV-2 Omicron BA.2.75 spike pseudovirus
Description: as §1

[4] = target: SARS-CoV-2 Omicron BA.5 spike pseudovirus
Description: as §1

[5] = target: SARS-CoV-2 Omicron BQ.1.1 spike pseudovirus
Description: as §1

[6] = target: SARS-CoV-2 Omicron XBB spike pseudovirus
Description: as §1

[7] = target: SARS-CoV-2 early D614G spike pseudovirus
Description: as §1

B1: BD57-074 (protein)
chain 1: QVLLVESGGGVVQPGRSLRLSCAASDFIFSNYAIHWVRQAPGKGLEWVAGVSSDGTIKYYADSVKGRFTISRDNSKKTLYLQMNSLRTEDTAVYHCAREALETTVTIFDYWGQGTLVTVSS
chain 2: DIQITQSPSSLSASVGDRVTITCRASQTISRYLNWYQQKPGKAPKLLIYAASTLQSGVPSRFSGSGSGTDFTLTISSLQPEDFATYFCQQSYSSPPITFGQGTRLEI
- pseudovirus neutralization IC50 [1]: > 10 µg/mL
- pseudovirus neutralization IC50 [2]: > 10 µg/mL
- pseudovirus neutralization IC50 [3]: > 10 µg/mL
- pseudovirus neutralization IC50 [4]: > 10 µg/mL
- pseudovirus neutralization IC50 [5]: > 10 µg/mL
- pseudovirus neutralization IC50 [6]: > 10 µg/mL
- pseudovirus neutralization IC50 [7]: > 10 µg/mL

B2: CM32 (protein)
chain 1: QVQLVQSGPEVKKPGASVKVSCQTSGYSFSDHYLHWVRQTPGQGFEWMGWIKPKSGATNSADNFQDRVTMTADASVNTAYMELSSLRPDDTAVYYCARGHRIPSAISDKYDFWGQGTLVTVSS
chain 2: QSVLTQPASVSASPGQSITISCTGTSSDVGGYDYVSWYQHHPDNAPKLLIFEVSNRPSGVSNRFSGSKSGNAASLTISGLLAEDEADYFCTSYSSGRTPYVFGTGTKVTVL
- pseudovirus neutralization IC50 [1]: > 10 µg/mL
- pseudovirus neutralization IC50 [2]: > 10 µg/mL
- pseudovirus neutralization IC50 [3]: > 10 µg/mL
- pseudovirus neutralization IC50 [4]: > 10 µg/mL
- pseudovirus neutralization IC50 [5]: > 10 µg/mL
- pseudovirus neutralization IC50 [6]: > 10 µg/mL
- pseudovirus neutralization IC50 [7]: 0.039 µg/mL

B3: BD57-079 (protein)
chain 1: QMQLVQSGPEVKKPGTSVKVSCKASGFTFTTSAVQWVRQARGQRLEWIGWIAVGSGDTNYAQSFQERVTLSRDESTSTAYMELSSLRSEDTAVYYCAAPYCTGGACNDGFDIWGQGTMVTVSS
chain 2: EIVLTQSPGTLSLSPGERATLSCRASQSVTSSYLAWYQQKPGQAPRVLIYAASSRATGIPDRFSGSGSGTEFTLTISRLEPEDFAVYHCQQYGRSPWTFGQGTKVEIK
- pseudovirus neutralization IC50 [1]: 0.001 µg/mL
- pseudovirus neutralization IC50 [2]: 0.000279 µg/mL
- pseudovirus neutralization IC50 [3]: 0.000817 µg/mL
- pseudovirus neutralization IC50 [4]: 0.194 µg/mL
- pseudovirus neutralization IC50 [5]: 0.881 µg/mL
- pseudovirus neutralization IC50 [6]: 2.58 µg/mL
- pseudovirus neutralization IC50 [7]: 0.00459 µg/mL

B4: BD57-080 (protein)
chain 1: QVQLQQSGPGLVKPSETLPLTCTVSGDSISSNSYYWGWIRQSPGKELQWIGTMNLRGGNYYNLSLKSRVTISVDTSKKQFSLKLRSVTAADTAVYYCARADLSDFHAFNIWGQGTMVTVSS
chain 2: DIQMTQSPSSLSASVGDRVTISCRASQSISDYLNWYQQKPGKAPKLLIYAASSLQSGVPSRFSGSGSGTDFTLTISSLQTEDFAAYYCQQSHSTPYTFGQGTKVEIK
- pseudovirus neutralization IC50 [1]: 1.13 µg/mL
- pseudovirus neutralization IC50 [2]: 1.25 µg/mL
- pseudovirus neutralization IC50 [3]: 1.29 µg/mL
- pseudovirus neutralization IC50 [4]: > 10 µg/mL
- pseudovirus neutralization IC50 [5]: > 10 µg/mL
- pseudovirus neutralization IC50 [6]: > 10 µg/mL
- pseudovirus neutralization IC50 [7]: 0.243 µg/mL

B5: BD57-089 (protein)
chain 1: QVQLVQSGAEVKKPGASVKVSCKASGYTFTSYYIYWVRQAPGQGLEWMGVFNPSGDGTSYAQKFQGRVTMTRDTSASTVYMELSSLRSEDTAVYYCARGLHGYSSGYIAHHAFDYWGQGTLVTVSS
chain 2: QSVLTQPPSVSGAPGQRVTISCTGSNSNIGTGYDVHWYQQLPGAAPRLLIYAYTNRPSGVPDRFSGSRSGTSASLAITGLQAEDEADYYCQSYDSSLAEDVVFGGGTRLTVL
- pseudovirus neutralization IC50 [1]: 0.00963 µg/mL
- pseudovirus neutralization IC50 [2]: 0.00447 µg/mL
- pseudovirus neutralization IC50 [3]: 0.0125 µg/mL
- pseudovirus neutralization IC50 [4]: 0.00827 µg/mL
- pseudovirus neutralization IC50 [5]: 0.893 µg/mL
- pseudovirus neutralization IC50 [6]: > 10 µg/mL
- pseudovirus neutralization IC50 [7]: 0.048 µg/mL

B6: BD57-090 (protein)
chain 1: EVQLVESGGGLVQPGGSLRLSCAASGFSLSDYDMHWVRQAAGKGLEWVSAIGTAGDTYYPGSVKGRFTISRENAKNSMYLQMNSLRAGDTAVYYCVRDTGMTSVTTEGIKNYWYFDFWGRGTLVTVSS
chain 2: DIQVTQSPSSLSASVGDRVTITCRASQSISSYLNWYQQKSGKAPKLLIYAASHLQSGVPSRFSGSGSGTDFTLTISSLQPEDFATYYCQQSYSSPPFTFGPGTKVDIK
- pseudovirus neutralization IC50 [1]: > 10 µg/mL
- pseudovirus neutralization IC50 [2]: > 10 µg/mL
- pseudovirus neutralization IC50 [3]: > 10 µg/mL
- pseudovirus neutralization IC50 [4]: > 10 µg/mL
- pseudovirus neutralization IC50 [5]: > 10 µg/mL
- pseudovirus neutralization IC50 [6]: > 10 µg/mL
- pseudovirus neutralization IC50 [7]: > 10 µg/mL

B7: BD57-091 (protein)
chain 1: QVLLVESGGGVVPPGRSLRLSCAASGFMFSNYAMHWVRQAPGKGLEWVAVILHEGSNKLYADSVKGRFTISRDNSKNTLYLQMSSLRAEDTAVYYCARDHGTVTTLPDYWGQGTLVTVSS
chain 2: DIQMTQSPSSLSASVGDRVTITCRASQSINNYLNWFQQRPGKAPKLLIYDASSLQSGVPSRFSGSGSGTDFTLTISSLQPEDFATYYCQQSYNTPPWTFGQGTKVEIK
- pseudovirus neutralization IC50 [1]: > 10 µg/mL
- pseudovirus neutralization IC50 [2]: > 10 µg/mL
- pseudovirus neutralization IC50 [3]: > 10 µg/mL
- pseudovirus neutralization IC50 [4]: > 10 µg/mL
- pseudovirus neutralization IC50 [5]: > 10 µg/mL
- pseudovirus neutralization IC50 [6]: > 10 µg/mL
- pseudovirus neutralization IC50 [7]: > 10 µg/mL

B8: BD57-096 (protein)
chain 1: QVQLVQSGAEVKKPGSSVKVSCKASGGTFSSYTVSWVRQAPGQGLHWMGRIIPILGVADYAQKFQDRVTITADKSTGTAYMELSSLRSDDTAVYYCAREVGYSSSGSNWYFDLWGRGTLVTVSS
chain 2: QSVLTQPPSVSGTPGQRVTISCTGSSSNIGAGYDVHWYQQVPGTAPKLLISVNNNRPSGVPDRFSGSKSGTSASLAITGLQAEDEADYYCQSYDSDLSGSLFGGGTKLTVL
- pseudovirus neutralization IC50 [1]: 0.271 µg/mL
- pseudovirus neutralization IC50 [2]: 0.275 µg/mL
- pseudovirus neutralization IC50 [3]: 0.204 µg/mL
- pseudovirus neutralization IC50 [4]: 0.255 µg/mL
- pseudovirus neutralization IC50 [5]: 0.872 µg/mL
- pseudovirus neutralization IC50 [6]: 0.803 µg/mL
- pseudovirus neutralization IC50 [7]: 0.0605 µg/mL

B9: BD57-097 (protein)
chain 1: EVQLVESGGGLVQPGGSLRLSCAASGFTFSSFDMHWVRQPTGKGLEWVSVIGTAGDTYYPDSVKGRFTISRENAKNSLYLQINSLRAGDTAVYYCARANYFGSSGYGNYYYGLDVWGQGTTVTVSS
chain 2: EIVMTQSPATLSVAPGERATLSCRASESVRSNLAWYQQKPGQGPRLLIYGASTRATGIPARFSGSGSGTEFTLTISSLQSEDFAVYYCQQYNIWPPLTFGGGTKVEIK
- pseudovirus neutralization IC50 [1]: 6.56 µg/mL
- pseudovirus neutralization IC50 [2]: 7.6 µg/mL
- pseudovirus neutralization IC50 [3]: 4.5 µg/mL
- pseudovirus neutralization IC50 [4]: 6.87 µg/mL
- pseudovirus neutralization IC50 [5]: 7.21 µg/mL
- pseudovirus neutralization IC50 [6]: > 10 µg/mL
- pseudovirus neutralization IC50 [7]: 3.63 µg/mL

B10: BD57-100 (protein)
chain 1: QVQLVQSGAEVKKPGASVQVSCKASGYTFTSYYIHWVRQAPGQGLEWMGTIDPSGGSTSYAQKFQGRVTMTRDTSTSPVYMELSSLRSDDTAVYYCATSTVTTLFVDYWGQGTLVTVSS
chain 2: NFMLTQPHSVSESPGKTVTISCTRSSGSIANNYVQWYQQRPGSAPTTVIYEDNQRPSGVPDRFSGSIDSSSNSASLTISGLKTEDEADYYCQSSDTNINWVFGGGTKLTVL
- pseudovirus neutralization IC50 [1]: 0.638 µg/mL
- pseudovirus neutralization IC50 [2]: 0.536 µg/mL
- pseudovirus neutralization IC50 [3]: 0.613 µg/mL
- pseudovirus neutralization IC50 [4]: 0.416 µg/mL
- pseudovirus neutralization IC50 [5]: 2.81 µg/mL
- pseudovirus neutralization IC50 [6]: 3.99 µg/mL
- pseudovirus neutralization IC50 [7]: 0.307 µg/mL

B11: BD56-003 (protein)
chain 1: EVQLLESGGRLVQPGGSLRLSCATSGFTFNTYAMTWVRQAPGKGLEWVSAISSRGSSTYYADSVKGRFTISRDISKNTLYLQMNSLRAEDTAIYYCAKDHIEGYYGSESYWDYWGQGTLVTVSS
chain 2: QSVLTQPPSASGTPGQRVTISCSGSSSNIGRNYVYWYQQLPGTAPKLLIYRNSQRPSGVPDRFSGSKSGTSASLAISGLRSEDEADYYCATWDDSLNGLWVFGGGTKLTVL
- pseudovirus neutralization IC50 [1]: 0.679 µg/mL
- pseudovirus neutralization IC50 [2]: 0.895 µg/mL
- pseudovirus neutralization IC50 [3]: 0.0152 µg/mL
- pseudovirus neutralization IC50 [4]: 0.708 µg/mL
- pseudovirus neutralization IC50 [5]: > 10 µg/mL
- pseudovirus neutralization IC50 [6]: > 10 µg/mL
- pseudovirus neutralization IC50 [7]: 0.00481 µg/mL

B12: BD56-007 (protein)
chain 1: EVQLVESGGQLVQPGRSLRLSCAASGFTFEDYAMHWVRQAPGRGLEWVSGIGWNSGVIGYADSVKGRFIISRDNAENSLYLQMRSLRAEDTALYYCAKEIEAVNSEGYALDVWGQGTTVTVAS
chain 2: QSALTQPASMSGSPGQSITISCTGTSSDVGAYNFVSWYQQHPGKAPKLLIYEVNYRPSGVSSRFSGSKSGTTASLTISGLLAEDEAHYYCTSYTSSSSVLFGGGTKLAVL
- pseudovirus neutralization IC50 [1]: 0.529 µg/mL
- pseudovirus neutralization IC50 [2]: 0.483 µg/mL
- pseudovirus neutralization IC50 [3]: 0.541 µg/mL
- pseudovirus neutralization IC50 [4]: > 10 µg/mL
- pseudovirus neutralization IC50 [5]: > 10 µg/mL
- pseudovirus neutralization IC50 [6]: > 10 µg/mL
- pseudovirus neutralization IC50 [7]: 0.00932 µg/mL
